Each structure is given as a SMILES string. The entries are a selection whose mix differs from that of the whole data set. Active and inactive are the calls of the source. Cut-off read from the data, not from the text of the source: active = fluorescence inhibition mostly above about 23% (no sharp cut-off); inactive = mostly below about 17%.

This experiment in a line: hypoxia reporter signal reduction in M. tuberculosis – fluorescence, absorbance growth readout, primary screen (AID 1159583). The note with it: M. tuberculosis hypoxia-regulated fluorescent reporter, stronger effect = higher value, concentration not given here.
For the molecule `O=[N+]([O-])c1cc([N+](=O)[O-])c(Nc2cccnc2)c([N+](=O)[O-])c1`, the fluorescence inhibition is inactive: 19.7%.

As to `O=[N+]([O-])c1ccc(Nc2ccc(Oc3ccc([N+](=O)[O-])cc3[N+](=O)[O-])cc2)c([N+](=O)[O-])c1`, the fluorescence inhibition was inactive: 0.999%.

`CP(=O)(Nc1ccccc1Br)Oc1ccccc1` (configuration not stated): the fluorescence inhibition is inactive: -2.41%.

As to `COc1ccccc1OP(C)(=O)Nc1ccccc1` (configuration not stated), the fluorescence inhibition was inactive: 12.1%.

Regarding `Cc1cc(SC(NC=O)C(Cl)(Cl)Cl)ncn1` (configuration not stated), the fluorescence inhibition is inactive: 11.6%.

Consider `O=P(Nc1ccccn1)(c1cccc2ccccc12)c1cccc2ccccc12`, for which the fluorescence inhibition is inactive: 7.23%.

Consider `CCOC(=O)Nc1cccc([As](=O)(O)O)c1`, for which the fluorescence inhibition was inactive: 4.07%.

In the case of `Cc1cc(SC(NC(=O)c2ccccc2)C(Cl)(Cl)Cl)nc(C(C)C)n1` (configuration not stated), the fluorescence inhibition was inactive: 0.17%.

For the molecule `COc1ccc(NC(=NP(=O)(N2CCOCC2)N2CCOCC2)N2CCOCC2)cc1`, the fluorescence inhibition is inactive: -8.47%.

In the case of `CCCCOc1ccc(C(=O)NCC2(N3CCCCC3)CCCCC2)cc1OC`, the fluorescence inhibition was inactive: 6.14%.

For `CC1CCNP(=O)(N(CCCl)CCCl)O1` (configuration not stated), the fluorescence inhibition is inactive: 10.7%.

Turning to `CP(=O)(Nc1ccccn1)Oc1ccc(Cl)cc1` (configuration not stated), the fluorescence inhibition is inactive: 3.17%.

For `CCC(C)N(CC(C)C)C(=S)SC(NC(C)=O)C(Cl)(Cl)Cl` (configuration not stated), the fluorescence inhibition is inactive: 4.51%.

For `O=[N+]([O-])c1cc([N+](=O)[O-])c(O)c([N+](=O)[O-])c1.c1ccc(Oc2ccncc2)cc1`, the fluorescence inhibition was inactive: 6.56%.

Regarding `CCOC(=O)c1ccc(NP(C)(=O)Oc2ccc(OC)cc2)cc1` (configuration not stated), the fluorescence inhibition was inactive: 9.28%.

For the molecule `CCOC(=O)c1ccc(NC(=O)C(C)(CCl)SC)cc1` (configuration not stated), the fluorescence inhibition was inactive: 8.31%.

Turning to `O=C(OC1CN2CCC1CC2)c1cccc([N+](=O)[O-])c1` (configuration not stated), the fluorescence inhibition is inactive: 16.2%.

As for `Cc1cc(C)cc(OP(C)(=O)Nc2ccc(SC(F)(F)F)cc2)c1` (configuration not stated), the fluorescence inhibition was inactive: 13.3%.

Consider `O=C(Nc1ccncc1[N+](=O)[O-])c1ccc([N+](=O)[O-])cc1[N+](=O)[O-]`, for which the fluorescence inhibition was inactive: 13.4%.

On to `CP(=O)(NC(=O)Nc1ccccc1)Oc1ccccc1` (configuration not stated), for which the fluorescence inhibition was inactive: 11.3%.

Consider `O=C(COc1ccccc1)OC1CN2CCC1CC2` (configuration not stated), for which the fluorescence inhibition is inactive: -6.01%.

Take `CCc1ccc(OP(C)(=O)N2CCN(c3ccc([N+](=O)[O-])cc3)CC2)cc1` (configuration not stated): the fluorescence inhibition is inactive: 5.59%.

Consider `CC1OP(=O)(Oc2ccccc2)C(O)C(O)C1N=[N+]=[N-]` (configuration not stated), for which the fluorescence inhibition is inactive: -3.77%.

Consider `CP(=O)(Oc1ccccc1)OC(c1ccccc1)C(F)(F)F` (configuration not stated), for which the fluorescence inhibition was inactive: 15.5%.

Take `COP1(=S)c2c(C)nn(CCC#N)c2N=C(c2ccc(F)cc2)N1C` (configuration not stated): the fluorescence inhibition was inactive: 12.3%.

Take `CP(=O)(Nc1ccc(SC(F)(F)F)cc1)Oc1ccc(Cl)cc1` (configuration not stated): the fluorescence inhibition was inactive: -0.746%.

Take `Cc1cccc(C)c1OP(C)(=O)Nc1ccc(SC(F)(F)F)cc1` (configuration not stated): the fluorescence inhibition is inactive: 2.58%.

These data come from PubChem BioAssay AID1159583 (ICCB-Longwood Screening Facility, Harvard Medical School, 2016).
